The nature of the series: general procedure: Fmoc solid-phase peptide synthesis; Rink Amide MBHA LL resin (100–200 mesh, 0.33 mmol/g, NovaBiochem); HCTU/NMM. As to conditions: whole synthesis, 220 nm.
On to FKLRAKIKVRLRAKIKL-NH2, for which the “final HPLC purity” value was 100%.
For the substance KKLFKKILKYL-NH2, the “final HPLC purity” value was determined as 100%.
On to KKLLKWLLKLL-NH2, for which the “final HPLC purity” value was found to be 98.6%.
KWKLFKKIGAVLKVL-NH2: the “final HPLC purity” value came to 99.0%.
Take LLLFLLKKRKKRKY-NH2: the “final HPLC purity” value amounted to 100%.
Then RRLFRRILRWL-NH2, with 100%.

The record behind these values is paper PMC7962642 (Molecules, 2021).
